Data reported in publication PMC7024169, “Synthesis and Antimalarial Activity of 1,4-Disubstituted Piperidine Derivatives” (Molecules, 2020).
Some compounds may have been tested in ways that are not shown here.

Columns and labels:
[1] = system: Plasmodium falciparum W2 Strain; experiment: Antiplasmodial SYBR Green I assay, chloroquine-resistant W2 strain; assay type: cell-based
[2] = system: Plasmodium falciparum 3D7 Strain; experiment: Antiplasmodial SYBR Green I assay, chloroquine-sensitive 3D7 strain; assay type: cell-based

Row | SMILES | activity against W2 strain, in words [1] | activity against 3D7 strain, in words [2]
1 | O=C(COc1ccccc1Cl)N(c1ccccc1)C1CCNCC1 | inactive | inactive
2 | O=C(COc1ccccc1Cl)N(c1cccc(F)c1)C1CCNCC1 | inactive | inactive
